The structures appear in SMILES notation.

By UniProt entry, the sequences of proteins in these tests, tags left out. Where a name states a change or a piece, a line headed by the entry shows the natural chain unless it says otherwise.
UniProt P51452: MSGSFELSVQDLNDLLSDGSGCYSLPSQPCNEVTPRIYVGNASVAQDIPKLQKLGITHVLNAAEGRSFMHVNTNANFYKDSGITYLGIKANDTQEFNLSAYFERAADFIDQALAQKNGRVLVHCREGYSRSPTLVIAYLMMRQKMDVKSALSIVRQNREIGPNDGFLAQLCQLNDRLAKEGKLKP

Among the data in ChEMBL document CHEMBL1156736, “Multidentate small-molecule inhibitors of vaccinia H1-related (VHR) phosphatase decrease proliferation of cervix cancer cells” (J Med Chem, 2009) are IC50 values, retold here.

The assay deals with Dual specificity protein phosphatase 3 (Homo sapiens, UniProt P51452). Kind of assay: Inhibition of recombinant vaccina H1-related phosphatase.

Turning to `O=C1/C(=C/c2cn(-c3ccccc3)nc2-c2ccc(S(=O)(=O)N3CCCCC3)cc2)SC(=S)N1CCS(=O)(=O)O`, the IC50 worked out at 270 nM.

Usually IC50 stands for the concentration needed to halve the response being measured.
